# Data from publication PMC6472032 (Marine Drugs, 2019).
# Amino acid sequences for entries named in this document (tags omitted). A change or cut given only in a name is not applied to a line headed by its entry.
# UniProt P02716: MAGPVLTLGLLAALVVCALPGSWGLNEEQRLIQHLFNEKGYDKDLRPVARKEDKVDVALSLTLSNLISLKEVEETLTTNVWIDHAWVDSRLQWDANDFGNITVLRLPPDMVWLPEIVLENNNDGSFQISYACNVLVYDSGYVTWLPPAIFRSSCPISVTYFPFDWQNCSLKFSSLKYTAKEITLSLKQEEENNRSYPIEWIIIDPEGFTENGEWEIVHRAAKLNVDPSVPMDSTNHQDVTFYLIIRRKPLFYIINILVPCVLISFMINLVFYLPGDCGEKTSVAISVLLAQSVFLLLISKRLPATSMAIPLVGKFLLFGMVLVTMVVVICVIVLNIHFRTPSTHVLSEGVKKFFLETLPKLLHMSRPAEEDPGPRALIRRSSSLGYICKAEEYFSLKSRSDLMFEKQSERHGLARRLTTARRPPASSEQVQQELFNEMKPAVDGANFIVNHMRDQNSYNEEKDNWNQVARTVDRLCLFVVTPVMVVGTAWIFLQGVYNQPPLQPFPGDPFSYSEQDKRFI
# UniProt P04756: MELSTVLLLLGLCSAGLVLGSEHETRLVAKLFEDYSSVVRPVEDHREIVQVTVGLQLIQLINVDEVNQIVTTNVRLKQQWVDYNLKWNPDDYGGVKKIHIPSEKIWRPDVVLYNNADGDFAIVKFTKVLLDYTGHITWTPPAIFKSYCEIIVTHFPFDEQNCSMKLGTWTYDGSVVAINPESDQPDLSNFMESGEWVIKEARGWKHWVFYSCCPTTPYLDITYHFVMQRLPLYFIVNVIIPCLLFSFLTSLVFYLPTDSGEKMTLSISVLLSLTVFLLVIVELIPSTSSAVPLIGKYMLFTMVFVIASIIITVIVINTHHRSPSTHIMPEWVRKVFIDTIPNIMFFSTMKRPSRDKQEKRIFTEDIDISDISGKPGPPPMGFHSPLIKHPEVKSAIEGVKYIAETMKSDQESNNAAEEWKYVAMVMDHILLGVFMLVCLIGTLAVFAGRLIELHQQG
# UniProt P20782: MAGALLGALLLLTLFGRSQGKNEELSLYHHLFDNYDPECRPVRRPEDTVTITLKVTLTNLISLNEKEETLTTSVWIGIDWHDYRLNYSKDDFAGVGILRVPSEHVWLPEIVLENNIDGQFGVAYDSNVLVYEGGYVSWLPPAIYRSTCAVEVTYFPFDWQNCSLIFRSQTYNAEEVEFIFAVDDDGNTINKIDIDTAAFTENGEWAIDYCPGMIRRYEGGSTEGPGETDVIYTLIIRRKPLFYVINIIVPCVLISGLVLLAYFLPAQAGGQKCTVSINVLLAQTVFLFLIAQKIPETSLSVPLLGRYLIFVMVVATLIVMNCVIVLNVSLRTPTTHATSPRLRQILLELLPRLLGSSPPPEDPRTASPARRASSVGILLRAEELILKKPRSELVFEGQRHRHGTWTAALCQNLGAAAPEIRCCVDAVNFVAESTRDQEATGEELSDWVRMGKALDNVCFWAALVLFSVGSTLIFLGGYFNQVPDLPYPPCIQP
# Target: mouse α1β1δε nAChR (Mus musculus, UniProt P02716+P04756+P20782)
# Assay: Electrophysiological selectivity assay, mouse α1β1δε nAChR
# Conditions: electrophysiological assays, data not shown
row,Compound,activity against mouse α1β1δε nAChR
1,N=C(N)NCCC[C@@H]1NC(=O)[C@@H]2CSSC[C@H](NC(=O)CN)C(=O)N[C@@H](CSSC[C@@H](C(=O)N[C@H](CCCNC(=N)N)C(=O)O)NC(=O)[C@H](CCCNC(=N)N)NC(=O)[C@H](Cc3ccc(O)cc3)NC1=O)C(=O)N[C@@H](CO)C(=O)N[C@@H](CC(=O)O)C(=O)N1CCC[C@H]1C(=O)N[C@@H](CCCNC(=N)N)C(=O)N2 [Compound 13],inactive
2,N=C(N)NCCC[C@@H](NC(=O)[C@@H]1CSSC[C@@H]2NC(=O)[C@@H](NC(=O)CN)CSSC[C@H](NC(=O)[C@@H](CCCNC(=N)N)NC(=O)[C@@H]3CCCN3C(=O)[C@H](CC(=O)O)NC(=O)[C@H](CO)NC2=O)C(=O)N[C@H](CCCNC(=N)N)C(=O)N[C@@H](Cc2ccc(O)cc2)C(=O)N[C@H](CCCNC(=N)N)C(=O)N1)C(=O)O [Compound 14],inactive
3,N=C(N)NCCC[C@H]1NC(=O)[C@H](Cc2ccc(O)cc2)NC(=O)[C@@H](CCCNC(=N)N)NC(=O)[C@@H]2CSSC[C@H](NC(=O)CN)C(=O)N[C@@H](CSSC[C@@H](C(N)=O)NC1=O)C(=O)N[C@@H](CO)C(=O)N[C@@H](CC(=O)O)C(=O)N1CCC[C@H]1C(=O)N[C@H](CCCNC(=N)N)C(=O)N2 [Compound 15],inactive
